Compound potency records, mixed from different reports. Data source: NIAID ChemDB in PubChem.

Common to all: growth or infection tests; organism: Candida krusei

MIC50, MIC90 and the like: level of inhibition, or share of isolates inhibited. ECn is the concentration giving n% inhibition of infection, replication or growth. Lines come from different laboratories, so protocols vary. An empty or dashed field is not shown.

SMILES	method	measure	strain	setting	value
CCCCCCCCn1cc[n+](COCCCCCCOC[n+]2ccn(CCCCCCCC)c2)c1	agar diffusion	MIC100	ATCC 6258	-	35 µM
O=C(CCn1ccnc1)c1ccc(-c2ccccc2)cc1	broth dilution	MIC	RTCC 1090	-	8 µg/mL
CC(O)Cc1ccc(Cn2cc(CN3CCN([C@H](C)[C@](O)(Cn4cncn4)c4ccc(F)cc4F)CC3)c3ccccc32)cc1	resazurin	MIC80	ATCC 6258	-	128 µg/mL
CCCCCCCCCCCC[n+]1cccc2ccccc21	broth dilution	MIC	E28	24 h	0.01562 µg/mL
COc1cc(C2=C(c3ccc(F)cc3F)COC2=O)ccc1OCC(O)(Cn1cncn1)c1ccc(F)cc1F	broth dilution	MIC50	ATCC 6258	-	8 µg/mL
CCCCCCCC/C=C\CCCCCCCC(=O)N[C@H](C(=O)N1C[C@H](C)C[C@H]1C(=O)N[C@H](C(=O)N[C@@H](CCO)C(=O)N[C@@H](C)CO)C(C)C)[C@@H](C)O	broth dilution / visual reading	MIC	ATCC 6258	-	>32 µg/mL
CO[N-]c1nc(C)nc2c1[N+](C/C=C(\C)CC/C=C(\C)CC/C=C(\C)CCC=C(C)C)=C=[N+]2C	agar	MIC	ATCC 6258	-	2 µg/mL
Clc1ccc(C(c2ccccc2)n2cncn2)cc1	agar	MIC90	-	-	256 µg/mL
CO/N=C/C(C)(C)C(O)(Cn1cncn1)c1ccc(Cl)cc1	visual reading	MIC	-	-	4 µg/mL
CC(C)C(NC(=O)C(N)Cc1ccccc1)C(=O)NC(Cc1ccc(O)cc1)C(=O)O	broth dilution	MFC	ATCC 6258	-	701 µg/mL
Cc1nc2c(s1)C(=O)C(Nc1ccc(C)c(C)c1)=C(Cl)C2=O	broth dilution	MIC	KCCM 11655	-	6.3 µg/mL
CN(Cc1ccc(S(=O)(=O)NC(C)(C)C)cc1)CC(O)(Cn1cncn1)c1ccc(F)cc1F	resazurin	MIC	506	-	2.2 µg/mL
CCOC(=O)c1c(N)oc2c1cc(O)c1sc(C)nc12	broth dilution	MIC	KCCM 11655	-	25 µg/mL
OC(CCn1ccnc1)c1cccc(C(O)c2ccc(Cl)cc2)c1	broth dilution	MIC	RTCC 1001	-	>64 µg/mL
CCCCn1cc[n+](COCCCCOC[n+]2ccn(CCCC)c2)c1	agar diffusion	MIC100	ATCC 6258	-	2871 µM
CCC(C)CC(C)CCCCCCCCC(=O)N[C@H]1C[C@@H](O)[C@H](NCCN)NC(=O)[C@@H]2[C@@H](O)CCN2C(=O)[C@H]([C@H](O)CCN)NC(=O)[C@H]([C@H](O)[C@@H](O)c2ccc(O)cc2)NC(=O)[C@@H]2C[C@@H](O)CN2C(=O)[C@H]([C@@H](C)O)NC1=O	broth dilution	MIC50	ATCC 5029	-	0.25 µg/mL
O=C(/C=C/c1ccc(Cl)c(Cl)c1)c1c[nH]c2ccccc12	broth dilution	MIC	NRRL Y-7179	-	200 µg/mL
C[C@@H](N1CCN(Cc2cn(Cc3ccc(C(F)(F)F)cc3)c3cc(Cl)ccc23)CC1)[C@](O)(Cn1cncn1)c1ccc(F)cc1F	resazurin	MIC80	ATCC 6258	-	1 µg/mL
CC(=O)N1CCN(c2ccc(OC[C@H]3CO[C@](Cn4ccnc4)(c4ccc(Cl)cc4Cl)O3)cc2)CC1	broth dilution	MIC	NRRL Y-7179	-	1.56 µg/mL
C/C(=N\NC([S-])=Nc1ccccc1Cl)c1ccccn1.CCC[CH2][Sn+3]	broth dilution	MIC	ATCC 200298	-	29.06 µM
O=C(O)Cc1ccc(OCC(O)(Cn2cncn2)c2ccc(F)cc2F)cc1	broth dilution	MIC50	ATCC 6258	-	128 µg/mL
Clc1ccccc1C(c1ccccc1)(c1ccccc1)n1ccnc1	-	MIC	Clinical isolates	48 h	4 µg/mL
Nc1[nH]c(=O)ncc1F	broth dilution	MIC	NBRC 1395	48 h	16 µg/mL
CCCCCCn1cc[n+](COCCOC[n+]2ccn(CCCCCC)c2)c1	agar diffusion	MIC100	ATCC 6258	-	669 µM
COc1ccc(C=O)cc1OCC(O)(Cn1cncn1)c1ccc(F)cc1F	broth dilution	MIC50	ATCC 6258	-	128 µg/mL
c1ccc(C(c2ccccc2)n2ccnc2)cc1	agar	MIC90	-	-	0.5 µg/mL
Cc1ccc(C(O)c2cccc(C(=O)CCn3ccnc3)c2)cc1	broth dilution	MIC	RTCC 1001	-	>64 µg/mL
C/C(C=O)=C\c1ccccc1	agar diffusion	MIC90	ATCC 6258	-	400 µM
C=CCc1ccc(OC)c(OC)c1	turbidity	MIC90	139	-	350 µg/mL
CCCCCCCCCCCn1cc[n+](COCCCCCCOC[n+]2ccn(CCCCCCCCCCC)c2)c1	agar diffusion	MIC100	ATCC 6258	-	2 µM
C[N-]c1nc(NOC)c2c(n1)[N+](C)=C=[N+]2C/C=C(\C)CC/C=C(\C)CC/C=C(\C)CCC=C(C)C	agar	MIC	ATCC 6258	-	2 µg/mL
CCCC[C@@H](C)/C=C(C)/C=C(\C)C(=O)N/C(=C/[C@@](C)(O)/C=C/C=C/C=C/C(=O)NC1=C(O)CCC1=O)C(=O)[C@@H]1CO1	broth dilution	MIC	1	-	25 µM
O=c1cc(-c2ccc(O)c(O)c2)oc2cc(O)c([C@@H]3O[C@H](CO)[C@@H](O)[C@H](O)[C@H]3O)c(O)c12	broth dilution	MIC	ATCC 6258	-	500 µg/mL
Clc1ccc(C(c2ccccc2)N2CCN(CCn3ccnc3)CC2)cc1	broth dilution	MFC	-	-	>256 µg/mL
Cc1ccc(N2N=C(c3c[nH]c4ccccc34)CC2c2ccc(Cl)cc2Cl)cc1	broth dilution	MIC	NRRL Y-7179	-	200 µg/mL
C[C@@H](N1CCN(Cc2cn(Cc3ccc(Cl)cc3)c3ccccc23)CC1)[C@](O)(Cn1cncn1)c1ccc(F)cc1F	resazurin	MIC80	ATCC 6258	-	1 µg/mL
COc1ccc(NC2=C(Cl)C(=O)c3nc(C)sc3C2=O)cc1	broth dilution	MIC	KCCM 11655	-	6.3 µg/mL
NC(=O)c1cc[n+](CCCC[n+]2ccccc2/C=N/O)cc1.[Br-].[Br-]	broth dilution	EC50	-	-	>20 µg/mL
Nc1scc2c1c(=O)oc1ccccc12	broth dilution	MIC	ATCC 6258	-	128 µg/mL
C[C@@H](N1CCN(Cc2cn(Cc3ccc(F)cc3)c3c(Cl)cccc23)CC1)[C@](O)(Cn1cncn1)c1ccc(F)cc1F	resazurin	MIC80	ATCC 6258	-	1 µg/mL
COc1cc(C2=C(c3ccc(F)cc3)COC2=O)ccc1OCC(O)(Cn1cncn1)c1ccc(F)cc1F	broth dilution	MIC50	ATCC 6258	-	16 µg/mL
O=C(CCn1ccnc1)c1cccc(C(O)c2ccc(Cl)c(Cl)c2)c1	broth dilution	MIC	RTCC 1001	-	64 µg/mL
CCC[CH2][Sn+3].O=[N+]([O-])c1ccccc1N=C([S-])N/N=C(\c1ccccc1)c1ccccn1	broth dilution	MIC	ATCC 200298	-	6.42 µM
C[C@@H](N1CCN(Cc2cn(Cc3ccc(F)cc3F)c3c(Cl)cccc23)CC1)[C@](O)(Cn1cncn1)c1ccc(F)cc1F	resazurin	MIC80	ATCC 6258	-	0.5 µg/mL
CC(C)(O)c1cn(-c2ccc(Cl)cc2)nn1	broth dilution	MIC	URM 1059	-	64 µg/mL
CCCNS(=O)(=O)c1ccc(CN(C)CC(O)(Cn2cncn2)c2ccc(F)cc2F)cc1	resazurin	MIC	8	-	1.8 µg/mL
C[n+]1ccn(COCCCCCCOCn2cc[n+](C)c2)c1	agar diffusion	MIC100	ATCC 6258	-	26 µM
CN(Cc1ccc(S(=O)(=O)Nc2ccc([N+](=O)[O-])cc2)cc1)CC(O)(Cn1cncn1)c1ccc(F)cc1F	resazurin	MIC	8	-	1.9 µg/mL
CCC(C)CC(C)CCCCCCCCC(=O)N[C@H]1C[C@@H](O)[C@H](NCCN)NC(=O)[C@@H]2[C@@H](O)CCN2C(=O)[C@H]([C@H](O)CCN)NC(=O)[C@H]([C@H](O)[C@@H](O)c2ccc(O)cc2)NC(=O)[C@@H]2C[C@@H](O)CN2C(=O)[C@H]([C@@H](C)O)NC1=O	broth dilution	MIC	C245	-	0.125 µg/mL
CO[N-]c1nc(Cl)nc2c1[N+](C/C=C(\C)CC/C=C(\C)CC/C=C(\C)CCC=C(C)C)=C=[N+]2C	agar	MIC	ATCC 6258	-	>16 µg/mL
O=C1OCC(c2ccccc2)=C1c1ccc(OCC(O)(Cn2cncn2)c2ccc(F)cc2F)cc1	broth dilution	MIC50	ATCC 6258	-	4 µg/mL
O=c1c(N2CCOCC2)c(N2CCN(S(=O)(=O)Cc3ccccc3)CC2)cnn1-c1ccccc1	broth dilution	MIC	C245	-	25 µg/mL
Cc1ccc(N2N=C(c3c[nH]c4ccccc34)CC2c2cc(Cl)cc(Cl)c2)cc1	broth dilution	MIC	NRRL Y-7179	-	50 µg/mL
NC(=O)c1cc[n+](Cc2ccc(C[n+]3ccc(C(N)=O)cc3)o2)cc1.[Br-].[Br-]	broth dilution	EC50	-	-	>20 µg/mL
OC(CCn1ccnc1)c1cccc(C(O)c2ccc(Br)cc2)c1	broth dilution	MIC	RTCC 1090	-	>64 µg/mL
c1ccc(C(c2ccccc2)n2cncn2)cc1	broth dilution	MFC	-	-	>256 µg/mL
CC(C)CC1NC(=O)CC(CCCCCCCCC(C)O)OC(=O)C(CC(C)C)NC(=O)C(CC(C)C)NC(=O)C(CC(C)C)NC(=O)C(C(C)C)NC(=O)C(CC(=O)O)NC(=O)C(CC(C)C)NC1=O	absorbance	MIC	Clinical isolate	-	2 µg/mL
OC(CCn1ccnc1)c1cccc(C(O)c2ccc(Cl)c(Cl)c2)c1	broth dilution	MIC	RTCC 1001	-	>64 µg/mL
CC(C)CC(O)C(=O)O	broth dilution / visual reading	MFC100	D 206 B	-	72000 µg/mL
COc1cc(/C=C2\SC(=S)NC2=O)ccc1OCC(O)(Cn1cncn1)c1ccc(F)cc1F	broth dilution	MIC50	ATCC 6258	-	16 µg/mL
CCCCCCCCCCn1cc[n+](COCCCOC[n+]2ccn(CCCCCCCCCC)c2)c1	agar diffusion	MIC100	ATCC 6258	-	32 µM
O/N=C/c1cccc[n+]1Cc1csc2ccccc12.[Cl-]	broth dilution	EC50	-	-	>20 µg/mL
CCCCCCCCCn1cc[n+](COCCCCCOC[n+]2ccn(CCCCCCCCC)c2)c1	agar diffusion	MIC100	ATCC 6258	-	85 µM
O=C(c1ccccc1)C(c1ccccc1)n1cncn1	agar	MIC90	-	-	>256 µg/mL
C=CCc1ccc(Cn2cc(CN3CCN([C@H](C)[C@](O)(Cn4cncn4)c4ccc(F)cc4F)CC3)c3cccc(F)c32)cc1	resazurin	MIC80	ATCC 6258	-	>128 µg/mL
COc1ccc(C2=C(c3ccc(OCC(O)(Cn4cncn4)c4ccc(F)cc4F)cc3)C(=O)OC2)cc1	broth dilution	MIC50	ATCC 6258	-	8 µg/mL
CCCCCCCCCCCCCCCC(=O)NC(CCCCN)C(=O)NC(CCCCN)C(N)=O	broth dilution	MIC	4153	-	1 µg/mL
C/C(=N\NC([S-])=Nc1ccccc1F)c1ccccn1.CCC[CH2][Sn+3]	broth dilution	MIC	ATCC 200298	-	14.98 µM
C[C@@H](N1CCN(Cc2cn(Cc3ccc(F)cc3F)c3c(F)cccc23)CC1)[C@](O)(Cn1cncn1)c1ccc(F)cc1F	resazurin	MIC80	ATCC 6258	-	0.5 µg/mL
NC(Cc1ccccc1)C(=O)NC(CC1C=Cc2ccccc21)C(=O)NC(CS)C(=O)O	broth dilution	MFC	ATCC 6258	-	719 µg/mL
O/N=C/c1cc[n+](Cc2cc(C[n+]3ccc(/C=N/O)cc3)on2)cc1.[Br-].[Br-]	broth dilution	EC50	-	-	>20 µg/mL
O=C(O[C@@H]1COC(=O)c2cc(O)c(O)c(O)c2-c2c(cc(O)c(O)c2O)C(=O)OC1C1OC(=O)c2cc(O)c(O)c(O)c2-c2c(O)c(O)c(O)c3c2C(=O)OC1[C@H]3O)c1cc(O)c(O)c(O)c1	broth dilution	MIC	ATCC 6258	-	26 µg/mL
C[C@@H](N1CCN(Cc2cn(Cc3ccc(Cl)cc3)c3c(Cl)cccc23)CC1)[C@](O)(Cn1cncn1)c1ccc(F)cc1F	resazurin	MIC80	ATCC 6258	-	1 µg/mL
Clc1ccc(C(c2ccccc2)n2cnc3ccccc32)cc1	broth dilution	MFC	-	-	>256 µg/mL
C[C@H]1[C@H](O)[C@@H](C)/C=C/C=C/C=C/C=C/C=C/C=C/C=C/[C@H](O[C@@H]2O[C@H](C)[C@@H](O)[C@H](N)[C@@H]2O)C[C@@H]2O[C@](O)(C[C@@H](O)C[C@@H](O)CC[C@H](O)[C@@H](O)C[C@@H](O)CC(=O)O[C@H]1C)C[C@H](O)[C@H]2C(=O)O	broth dilution	MIC	14243	-	0.125 µg/mL
O=C(CCn1ccnc1)c1cccc(O)c1	broth dilution	MIC	RTCC 1090	-	32 µg/mL